Measured values from several laboratories, pooled; numbers as filed in NIAID ChemDB.

All rows: whole-cell or culture tests

Zone: diameter of growth inhibition. An empty or dashed field is not shown. Lines come from different laboratories, so protocols vary. A number after MIC or MFC names an inhibition level or a share of isolates. ECn is the concentration giving n% inhibition of infection, replication or growth. Percent inhibition refers to the dose given; in toxicity tests it is the harm to the cells.

{"structure": "CC[C@H]1OC(=O)[C@H](C)[C@@H](O[C@H]2C[C@@](C)(OC)[C@@H](O)[C@H](C)O2)[C@H](C)[C@@H](O[C@@H]2O[C@H](C)C[C@H](N(C)C)[C@H]2O)[C@](C)(OC)C[C@@H](C)C(=O)[C@H](C)[C@@H](O)[C@]1(C)O", "agent": "Mycobacterium abscessus", "read by": "broth dilution", "measure": "MIC", "strain or isolate": "X72", "value": "16 µg/mL"}
{"structure": "Nc1cc(OCCOCP(=O)(O)O)nc(N)n1", "agent": "Cytomegalovirus", "read by": "cytopathic effect", "measure": "EC50", "strain or isolate": "AD169", "value": ">190 µM"}
{"structure": "O[C@H]1[C@@H](O)COC(n2cnc3cc(Cl)c(Cl)cc32)[C@@H]1O", "agent": "Sindbis virus", "read by": "cytopathic effect", "measure": "EC50", "cell line": "HeLa", "value": ">400 µg/mL"}
{"structure": "Nc1nccc2c1ncn2[C@@H]1C=C[C@@H](O)[C@H]1O", "agent": "Rotavirus A", "read by": "virus yield", "measure": "EC90", "cell line": "MA-104", "value": "1 µg/mL"}
{"structure": "OC[C@H]1O[C@@H](n2cnc3c(NC4CCCCCC4)ncnc32)[C@H](O)[C@@H]1O", "agent": "Bovine herpesvirus 1", "read by": "cytopathic effect", "measure": "EC50", "cell line": "MDBK", "strain or isolate": "IRB-LA", "value": ">50 µM"}
{"structure": "CC[C@H]1OC(=O)[C@H](C)[C@@H](O[C@H]2C[C@@](C)(OC)[C@@H](O)[C@H](C)O2)[C@H](C)[C@@H](O[C@@H]2O[C@H](C)C[C@H](N(C)C)[C@H]2O)[C@](C)(O)C[C@@H](C)C(=O)[C@H](C)[C@@H](O)[C@]1(C)O", "agent": "Haemophilus influenzae", "measure": "MIC90", "strain or isolate": "44 strains", "value": "8 µg/mL"}
{"structure": "Nc1ncc2ncn(CCOCP(=O)(O)O)c2n1", "agent": "Cytomegalovirus", "read by": "plaque count", "measure": "EC50", "cell line": "HEL", "strain or isolate": "DAVIS", "value": "200 µg/mL"}
{"structure": "OC[C@@H]1CC[C@H](n2cnc3c(NC4CCCCCC4)ncnc32)O1", "agent": "Maedi-visna virus", "read by": "cytopathic effect", "measure": "EC50", "cell line": "Sheep chondrocytes G81092", "strain or isolate": "KV1772", "value": "8.6 µM"}
{"structure": "Nc1cc(OC[C@H](CO)OCP(=O)(O)O)nc(N)n1", "agent": "Punta Toro virus", "read by": "cytopathic effect", "measure": "EC50", "value": ">15 µM"}
{"structure": "Nc1nc(N)c2ncn(CC(CO)OCP(=O)(O)O)c2n1", "agent": "Cytomegalovirus", "read by": "cytopathic effect", "measure": "EC50", "cell line": "HEL", "strain or isolate": "DAVIS", "value": "20 µg/mL"}
{"structure": "Nc1ccn(C[C@@H](CO)OCP(=O)(O)O)c(=O)n1", "agent": "Adenovirus", "read by": "cytopathic effect", "measure": "EC50", "strain or isolate": "TRIM (TYPE 8)", "value": "4 µg/mL"}
{"structure": "CN1CCN(c2c(F)cc3c(=O)c(C(=O)O)cn4c3c2SCC4CF)CC1", "agent": "Haemophilus influenzae", "measure": "MIC90", "strain or isolate": "44 strains", "value": "0.12 µg/mL"}
{"structure": "O[C@@H]1CC(n2cnc3cc(Cl)c(Cl)cc32)OC[C@@H]1O", "agent": "Reovirus", "read by": "cytopathic effect", "measure": "EC50", "cell line": "HeLa", "strain or isolate": "TYPE 1", "value": ">150 µg/mL"}
{"structure": "S=c1nc[nH]c2c1ncn2C1CCCO1", "agent": "Dengue virus", "read by": "plaque count", "measure": "inhibition", "cell line": "LLC-MK2", "strain or isolate": "TYPE 2", "tested at": "100 µM", "value": "14%"}
{"structure": "OC[C@H]1O[C@@H](n2cnc3c(NC4CC4)nc(Cl)nc32)C[C@@H]1O", "agent": "Bovine herpesvirus 1", "read by": "cytopathic effect", "measure": "EC50", "cell line": "MDBK", "strain or isolate": "IRB-LA", "value": ">50 µM"}
{"structure": "O=c1ccn(CC(CO)OCP(=O)(O)O)c(=O)[nH]1", "agent": "Cytomegalovirus", "read by": "cytopathic effect", "measure": "EC50", "cell line": "HEL", "strain or isolate": "DAVIS", "value": "100 µg/mL"}
{"structure": "CN(C)c1cc(NC(=O)CNC(C)(C)C)c(O)c2c1C[C@H]1C[C@H]3[C@H](N(C)C)C(=O)C(C(N)=O)=C(O)[C@@]3(O)C(=O)C1=C2O", "agent": "Mycobacterium abscessus", "read by": "broth dilution", "measure": "MIC", "strain or isolate": "X30", "value": "0.25 µg/mL"}
{"structure": "CC(N)C12CC3CC(CC(C3)C1)C2", "agent": "Influenza A virus", "measure": "EC50", "cell line": "MDCK", "strain or isolate": "Influenza A/Mississippi/1/85 (H3N2)", "value": "<0.27 µM"}
{"structure": "O[C@@H]1[C@@H](OCc2ccccc2)[C@@H](COCc2ccccc2)O[C@H]1n1cnc2cc(Cl)c(Cl)cc21", "agent": "Reovirus", "read by": "cytopathic effect", "measure": "EC50", "cell line": "HeLa", "strain or isolate": "TYPE 1", "value": ">10 µg/mL"}
{"structure": "Nc1nc2c(ncn2CCOCP(=O)(O)O)c(=O)[nH]1", "agent": "Cytomegalovirus", "read by": "cytopathic effect", "measure": "EC50", "cell line": "HEL", "strain or isolate": "DAVIS", "value": "0.7 µg/mL"}
{"structure": "Cc1c(C)c2c(c(C)c1O)CCC(C)(C(=O)O)O2", "agent": "Rhinovirus", "measure": "inhibition", "cell line": "HeLa", "tested at": "31 µM", "value": "80%"}
{"structure": "Nc1nc(N)c2ncn(CCOCP(=O)(O)O)c2n1", "agent": "Cytomegalovirus", "read by": "cytopathic effect", "measure": "EC50", "cell line": "HEL", "strain or isolate": "AD169", "value": "20 µg/mL"}
{"structure": "C#CC[C@@H](C(=O)N[C@H](/C=C/C(=O)OCC)C[C@@H]1CCNC1=O)n1cccc(NC(=O)c2cc(C)on2)c1=O", "agent": "Rhinovirus", "read by": "cytopathic effect / XTT", "measure": "EC50", "cell line": "H1-HELA", "strain or isolate": "Clinical isolate 0 (serotype 39)", "value": "0.074 µM"}
{"structure": "CC(C)CCOc1ccc(C2CC(=O)c3c(O)cc(O)cc3O2)cc1", "agent": "Candida krusei", "read by": "agar diffusion / agar", "measure": "zone", "tested at": "100 µg/mL", "value": "0 mm"}
{"structure": "Cc1cn(C[C@@H](CO)OCP(=O)(O)O)c(=O)[nH]c1=O", "agent": "Cytomegalovirus", "read by": "cytopathic effect", "measure": "EC50", "cell line": "HEL", "strain or isolate": "DAVIS", "value": "400 µg/mL"}
{"structure": "NC12CC3CC(CC(C3)C1)C2", "agent": "Influenza A virus", "read by": "plaque count", "measure": "EC50", "cell line": "MDCK", "strain or isolate": "Influenza A/Kitakyushu/159/93 (H3N2)", "value": ">50 µg/mL"}
{"structure": "OC[C@H]1O[C@@H](n2cnc3c(NC4CCCCCC4)nc(Cl)nc32)CC1O", "agent": "Maedi-visna virus", "read by": "cytopathic effect", "measure": "EC50", "cell line": "Sheep chondrocytes G81092", "strain or isolate": "KV1772", "value": "0.27 µM"}
{"structure": "N=C(N)c1ncn([C@@H]2O[C@H](CO)[C@@H](O)[C@H]2O)n1", "agent": "Influenza A virus (H1N1)", "read by": "neutral red", "measure": "EC50", "cell line": "MDCK", "strain or isolate": "A/Beijing/262/95", "value": "32 µg/mL"}
{"structure": "Clc1cc2nc[nH]c2cc1Cl", "agent": "Reovirus", "read by": "cytopathic effect", "measure": "EC50", "cell line": "HeLa", "strain or isolate": "TYPE 1", "value": ">10 µg/mL"}
{"structure": "OC[C@H]1O[C@@H](n2cnc3c(NC4CC4)cc(Cl)nc32)C[C@@H]1O", "agent": "Bovine herpesvirus 1", "read by": "cytopathic effect", "measure": "EC50", "cell line": "MDBK", "strain or isolate": "IRB-LA", "value": ">50 µM"}
{"structure": "OCCOC(CCO)n1cnc2cc(Cl)c(Cl)cc21", "agent": "Sindbis virus", "read by": "cytopathic effect", "measure": "EC50", "cell line": "HeLa", "value": ">100 µg/mL"}
{"structure": "Nc1nc(N)c2ncn(C[C@@H](CO)OCP(=O)(O)O)c2n1", "agent": "Duck hepatitis B virus", "read by": "hybridisation", "measure": "EC50", "cell line": "Primary duck hepatocytes", "value": "0.06 µM"}
{"structure": "O=C(O)P(=O)(O)O", "agent": "Cytomegalovirus", "read by": "plaque count", "measure": "EC50", "cell line": "HEL", "strain or isolate": "AD169", "value": "15 µg/mL"}
{"structure": "Nc1nc(Cl)nc2c1ncn2[C@@H]1O[C@H](CO)[C@@H](O)[C@H]1O", "agent": "Maedi-visna virus", "read by": "cytopathic effect", "measure": "EC50", "cell line": "Sheep chondrocytes G81092", "strain or isolate": "KV1772", "value": "15 µM"}
{"structure": "C[C@H](COc1cc(N)nc(N)n1)OCP(=O)(O)O", "agent": "Cytomegalovirus", "read by": "cytopathic effect", "measure": "EC50", "strain or isolate": "DAVIS", "value": ">180 µM"}
{"structure": "S=C(S)N1CCCC1", "agent": "Rhinovirus", "measure": "inhibition", "cell line": "HeLa", "strain or isolate": "TYPE 14", "tested at": "31 µM", "value": "15%"}
{"structure": "CN[C@@H]1[C@H](O[C@H]2[C@H](O[C@H]3[C@H](O)[C@@H](O)[C@H](N=C(N)N)[C@@H](O)[C@@H]3N=C(N)N)O[C@@H](C)[C@]2(O)C=O)O[C@@H](CO)[C@H](O)[C@H]1O", "agent": "Klebsiella pneumoniae", "measure": "MIC", "strain or isolate": "ESBL-3967", "value": "25 µg/mL"}
{"structure": "OC[C@H]1O[C@@H](n2cnc3c(NC4CCCCCC4)cc(Cl)nc32)C[C@@H]1O", "agent": "Maedi-visna virus", "read by": "cytopathic effect", "measure": "EC50", "cell line": "Sheep chondrocytes G81092", "strain or isolate": "KV1772", "value": "1.41 µM"}
{"structure": "CN1CCN(c2c(F)cc3c(=O)c(C(=O)O)cn4c3c2SCC4)CC1", "agent": "Haemophilus influenzae", "measure": "MIC50", "strain or isolate": "44 strains", "value": "0.5 µg/mL"}
{"structure": "C=CC(C)(C)C1=Cc2cc3c(cc2OC1=C)OC(C(C)(C)OC(C)=O)C3", "agent": "Epstein-Barr virus", "read by": "PCR", "measure": "EC50", "cell line": "P3HR-1", "value": "3.78 µM"}
{"structure": "Nc1nccc2c1ncn2[C@@H]1O[C@H](CO)[C@@H](O)[C@H]1O", "agent": "Vesicular stomatitis virus", "read by": "cytopathic effect", "measure": "EC50", "cell line": "PRK", "value": "7 µg/mL"}
{"structure": "OC[C@H]1O[C@@H](n2cnc3cc(Cl)c(Cl)cc32)[C@H](O)[C@@H]1O", "agent": "Reovirus", "read by": "cytopathic effect", "measure": "EC50", "cell line": "HeLa", "strain or isolate": "TYPE 1", "value": ">10 µg/mL"}
{"structure": "OC[C@H]1O[C@@H](n2cnc3c(NC4CC4)nc(Cl)nc32)[C@H](O)[C@@H]1O", "agent": "Bovine herpesvirus 1", "read by": "cytopathic effect", "measure": "EC50", "cell line": "MDBK", "strain or isolate": "IRB-LA", "value": ">50 µM"}
{"structure": "Nc1ncnc2c1ncn2C[C@H](CO)OCP(=O)(O)O", "agent": "Adenovirus", "read by": "cytopathic effect", "measure": "EC50", "strain or isolate": "13306 (TYPE 8)", "value": "4 µg/mL"}
{"structure": "O=c1[nH]cnc2c1ncn2C[C@@H](CO)OCP(=O)(O)O", "agent": "Cytomegalovirus", "read by": "plaque count", "measure": "EC50", "cell line": "HEL", "strain or isolate": "DAVIS", "value": "70 µg/mL"}
{"structure": "CCCCCCCN(CC1=C(O)c2ccccc2C(=O)C1=O)Cc1ccccc1", "agent": "Toxoplasma gondii", "measure": "EC50", "strain or isolate": "PLK", "value": "2.1 µM"}
{"structure": "OCCOC(CO)n1cnc2cc(Cl)c(Cl)cc21", "agent": "Sindbis virus", "read by": "cytopathic effect", "measure": "EC50", "cell line": "HeLa", "value": ">200 µg/mL"}
{"structure": "Nc1nccc2c1ncn2[C@@H]1C=C(CO)[C@@H](O)[C@H]1O", "agent": "Rotavirus A", "read by": "virus yield", "measure": "EC90", "cell line": "MA-104", "value": "0.04 µg/mL"}
{"structure": "Nc1nc2c(ncn2CCOCP(=O)(O)O)c(=O)[nH]1", "agent": "Measles virus", "read by": "neutral red", "measure": "EC50", "strain or isolate": "Edmonston", "value": ">32 µg/mL"}

Repeating the first 7 entries:

structure,agent,read by,measure,cell line,strain or isolate,tested at,value
CC[C@H]1OC(=O)[C@H](C)[C@@H](O[C@H]2C[C@@](C)(OC)[C@@H](O)[C@H](C)O2)[C@H](C)[C@@H](O[C@@H]2O[C@H](C)C[C@H](N(C)C)[C@H]2O)[C@](C)(OC)C[C@@H](C)C(=O)[C@H](C)[C@@H](O)[C@]1(C)O,Mycobacterium abscessus,broth dilution,MIC,,X72,,16 µg/mL
Nc1cc(OCCOCP(=O)(O)O)nc(N)n1,Cytomegalovirus,cytopathic effect,EC50,,AD169,,>190 µM
O[C@H]1[C@@H](O)COC(n2cnc3cc(Cl)c(Cl)cc32)[C@@H]1O,Sindbis virus,cytopathic effect,EC50,HeLa,,,>400 µg/mL
Nc1nccc2c1ncn2[C@@H]1C=C[C@@H](O)[C@H]1O,Rotavirus A,virus yield,EC90,MA-104,,,1 µg/mL
OC[C@H]1O[C@@H](n2cnc3c(NC4CCCCCC4)ncnc32)[C@H](O)[C@@H]1O,Bovine herpesvirus 1,cytopathic effect,EC50,MDBK,IRB-LA,,>50 µM
CC[C@H]1OC(=O)[C@H](C)[C@@H](O[C@H]2C[C@@](C)(OC)[C@@H](O)[C@H](C)O2)[C@H](C)[C@@H](O[C@@H]2O[C@H](C)C[C@H](N(C)C)[C@H]2O)[C@](C)(O)C[C@@H](C)C(=O)[C@H](C)[C@@H](O)[C@]1(C)O,Haemophilus influenzae,,MIC90,,44 strains,,8 µg/mL
Nc1ncc2ncn(CCOCP(=O)(O)O)c2n1,Cytomegalovirus,plaque count,EC50,HEL,DAVIS,,200 µg/mL